Only a part is listed here, and it is no random draw. Calls of active or inactive are those of the source.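 Rule for the calls: active = both repeat wells score below -2 in polarization z-score versus plate sample wells, excluding overly bright wells; inactive = the rest.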

This experiment relates to LANA (ORF73) N-terminal peptide binding to nucleosomes, Human herpesvirus 8. Briefly: LANA N-terminal peptide–nucleosome interaction blockers – biochemical, fluorescence polarization, FITC-LANA1-23, chicken nucleosomes, primary screen (AID 720717). To be noted: FITC-LANA1-23 / chicken nucleosome fluorescence polarization; hits give low values. The method in brief:
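System – purified chicken nucleosomes with FITC-labelled LANA N-terminal peptide (1-23) · Amount – 240 nM purified chicken nucleosomes (480 nM peptide binding sites), final · Also added – 50 nM FITC-LANA1-23 probe · Medium – TEN-BT buffer, pH 7.5 · Incubation – compound with peptide–nucleosome mix 10–45 min at room temperature · Detection – fluorescence polarization, ex 480 nm, em 535 nm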
For orientation: In fluorescence polarisation assays a small probe gives low polarisation when free and higher when bound to something large.
Consider `Nc1nonc1-c1no[n+]([O-])c1-c1nonc1N`, for which the z-score was inactive: -1.14.

On to `NC(=O)Nc1ccc([As](=O)(O)O)cc1`, for which the z-score is inactive: 0.185.

In the case of `O=P1(Nc2nc3ccc(Cl)cc3s2)COc2ccccc2OC1`, the z-score was inactive: 0.447.

On to `CC1(C)Nc2ccccc2OP1(=O)c1ccccc1` (configuration not stated), for which the z-score was inactive: 1.03.

For `NC(=O)COC(=O)C1(O)c2ccccc2-c2ccccc21`, the z-score was inactive: -0.438.

In the case of `Nc1nonc1OCCOc1nonc1N`, the z-score is inactive: -0.678.

As to `Cc1cc(C)cc(OP(C)(=O)NCc2ccccc2)c1` (configuration not stated), the z-score was inactive: -0.172.

Take `CP(=O)(Nc1ccc(Cl)cc1)Oc1ccccc1` (configuration not stated): the z-score is inactive: -0.131.

Consider `COc1ccccc1OP(C)(=O)Nc1ccccc1` (configuration not stated), for which the z-score was inactive: -0.201.

For `OCCSCCO`, the z-score was inactive: -0.605.

On to `CN(C(=O)Cc1ccc(Cl)c(Cl)c1)[C@H]1CCCC[C@@H]1N1CCCC1`, for which the z-score is inactive: -0.172.

Regarding `CCOP(OCC)N1CCOCC1`, the z-score is inactive: 2.17.

Regarding `O=C(OCCN1CCN(CCOCc2ccccc2)CC1)C(O)(c1ccccc1)c1ccccc1`, the z-score was inactive: -0.543.

For the compound `O=C(OC1/C(=C/c2ccccc2F)N2CCC1CC2)c1ccccc1` (configuration not stated), the z-score is inactive: -0.448.

With `Nc1nonc1OCc1nonc1COc1nonc1N`, the z-score was inactive: -0.073.

Take `Cc1ccccc1NP(C)(=O)Nc1ccccc1C`: the z-score was inactive: -0.244.

On to `C/C1=C2N=C(/C=C3N=C(/C(C)=C4\[N-][C@@](C)([C@@H]5N=C1[C@](C)(CCC(=O)NC[C@@H](C)OP(=O)([O-])O[C@H]1[C@@H](O)[C@@H](n6cnc7cc(C)c(C)cc76)O[C@@H]1CO)[C@H]5CC(N)=O)[C@@](C)(CC(N)=O)[C@@H]4CCC(N)=O)[C@@](C)(CC(N)=O)[C@@H]\3CCC(N)=O)C(C)(C)[C@@H]/2CCC(N)=O.[C-]#N.[Co+3]`, for which the z-score is inactive: 0.335.

The values above are taken from PubChem BioAssay AID720717 (ICCB-Longwood Screening Facility, Harvard Medical School, 2013).
